Values of other authors in paper PMC4621754, “Parasitic diarrheal disease: drug development and targets” (Frontiers in Microbiology, 2015).

System: E. intestinalis
Details: in water, as disinfectant; ref John et al., 2005

chlorine
killing of E. intestinalis: kills
